Measured values reported in PubChem BioAssay AID1800 (The Scripps Research Institute Molecular Screening Center, 2009).
The list shows a part of the results, in another mix than the full data. The source made the active and inactive calls.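 The calls were made as follows: active = inhibition above the mean of all tested compounds plus 3 SD, set per campaign (cut at about 35% in these data); inactive = the rest.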

test system: Hepatitis C virus NS3 helicase; assay: inhibitors of HCV NS3 helicase, primary screen, biochemical, Cy5 molecular beacon fluorescence (AID 1800); settings: NS3 helicase DNA unwinding, at 10.9 µM, hits give high values;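 also: 0% = DMSO wells and 100% = thioflavine S control wells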
Outline: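 System: HCV NS3 helicase fragment; control set: DMSO and thioflavine S; technique: Cy5 fluorescence at 0 and 60 min, beacon hairpin quenching; reagent: beacon DNA duplex substrate plus ATP; replicates: singlicate; schedule: 1 h reaction at 25 °C, ATP-initiated; medium: MOPS buffer pH 6.5 with MgCl2, DTT, Tween20, BSA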

Structure (SMILES) | inhibition
CCOC(=O)N1CCC(Nc2cccc(C)c2)CC1 | inactive: 3.17%
COc1cc(C(=O)NCC2(N(C)C)CCCCC2)ccc1OC(F)F | inactive: -1.83%
Cc1ccc(OCC(C)C)c(CN(CCCl)CCCl)c1 | inactive: -3.76%
O=C(NCC1(N2CCCCC2)CCCCC1)c1ccc(F)cc1 | inactive: -6.96%
CCOC(=O)N1CCC(Nc2ccc(F)cc2)CC1 | inactive: 24.6%
COc1ccc(NC2CCN(CCc3ccccc3)CC2)c(OC)c1 | inactive: -12.2%
CCOc1ccc(C)cc1CN(CCCl)CCCl | inactive: 3.26%
N#CC1(Nc2ccccc2)CCN(Cc2ccccc2)CC1 | inactive: 5.58%
O=C(OC1CN2CCC1CC2)C1c2ccccc2Oc2ccccc21 (centres undefined) | inactive: -6.69%
CCOC(=O)N1CCC(Nc2ccc(OC)cc2)CC1 | inactive: -0.98%
Cc1cc(C)cc(N(C(=O)c2ccccc2)C2CCN(C(=O)OC(C)(C)C)CC2)c1 | inactive: 10.6%
O=C(NCC1(N2CCOCC2)CCCCC1)c1cc2ccccc2o1 | inactive: 1.74%
CSc1ccccc1C(=O)NCC1(N2CCCCC2)CCCCC1 | inactive: -28.8%
COc1ccc(C(=O)NCC2(N3CCCCC3)CCCCC2)cc1 | inactive: -0.67%
COc1ccc(C(=O)NCC2(N3CCCCC3)CCCCC2)c(OC)c1OC | inactive: 4.97%
CC(C)(C)OC(=O)N1CCC(N(C(=O)c2ccccc2)c2ccc(F)cc2)CC1 | inactive: -3.13%
O=C(NCC1(N2CCCCC2)CCCCC1)c1ccc(=O)[nH]c1 | inactive: 4.22%
CCCOc1ccc(C(=O)NCC2(N(C)C)CCCCC2)cc1OC | inactive: 5.46%
CN1CCC(Nc2cccc(F)c2)CC1 | inactive: 4.17%
COc1cc(OC)c(C(=O)NCC2(N(C)C)CCCCC2)cc1OC | inactive: 7.13%
CC(C)c1ccc(NC2CCN(C(=O)OC(C)(C)C)CC2)cc1 | inactive: -7.35%
COc1ccc(CN(CCCl)CCCl)cc1Cl | inactive: -2.67%
CN(C)c1cccc(C(=O)NCC2(N3CCCCC3)CCCCC2)c1 | inactive: 1.72%
O=C(NCC1(N2CCOCC2)CCCCC1)c1cc(=O)[nH]c2ccccc12 | inactive: -3.63%
COc1cc(C(=O)NCC2(N3CCCCC3)CCCCC2)ccc1OC(F)F | inactive: -17.1%
COc1ccc(NC2CCN(C(=O)OC(C)(C)C)CC2)cc1 | inactive: 29.7%
CN1CCN(CCOC(=O)C(O)(c2ccccc2)c2ccccc2)CC1 | inactive: -5.04%

Structure (SMILES) | inhibition
O=C(NCC1(N2CCCCC2)CCCCC1)c1cccc(C(F)(F)F)c1 | inactive: 1.8%
CCN1CCC(Nc2ccc(Cl)cc2)CC1 | inactive: 4.34%
N#CC1(Nc2ccccc2)CCN(CCc2ccccc2)CC1 | inactive: 1.98%
O=C(NCC1(N2CCCCC2)CCCCC1)c1cccc([N+](=O)[O-])c1 | inactive: -0.51%
O=C(NCC1(N2CCCCC2)CCCCC1)c1ccc(OC(F)F)cc1 | inactive: -23.8%
CN(C)C1(CNC(=O)c2cccc(C#N)c2)CCCCC1 | inactive: 1.32%
c1ccc(CN2CCC(Nc3ccccc3)CC2)cc1 | inactive: -2.08%
CCCN1CCC(Nc2cc(OC)cc(OC)c2)CC1 | inactive: 0.87%
N#Cc1ccc(C(=O)NCC2(N3CCCCC3)CCCCC2)cc1 | inactive: 2.22%
CC(C)(C)OC(=O)N1CCC(N(C(=O)c2ccccc2)c2ccc(Cl)cc2)CC1 | inactive: -12.5%
O=C(OC1CN2CCC1CC2)C1c2ccccc2C=Cc2ccccc21 (centres undefined) | inactive: -4.82%
CCOC(=O)N1CCC(Nc2ccc(C)cc2)CC1 | inactive: 5.85%
N/C(=N\O)c1c(N)no[n+]1[O-] | inactive: 6.06%
COc1ccc(C(=O)NCC2(N3CCOCC3)CCCCC2)cc1OC | inactive: -3.59%
CN1CCC(Nc2ccc(Cl)cc2)CC1 | inactive: -1.72%
CCCOc1ccc(C)cc1CN(CCCl)CCCl | inactive: -13.1%
COc1cccc(C(=O)N(c2cc(C)cc(C)c2)C2CCN(C(=O)OC(C)(C)C)CC2)c1 | inactive: -8.64%
COc1cc(OC)cc(C(=O)NCC2(N3CCOCC3)CCCCC2)c1 | inactive: 3.42%
CCC(CO)(C(=O)OC1CN2CCC1CC2)c1ccccc1 (centres undefined) | inactive: 4.16%
CC(C)(C)OC(=O)N1CCC(Nc2ccccc2)CC1 | inactive: -0.46%
O=C(O)C1(Nc2ccccc2)CCN(Cc2ccccc2)CC1 | inactive: -7.64%
CCCOc1ccc(C(=O)NCC2(N(C)C)CCCCC2)cc1 | inactive: -4.85%
CCOc1ncccc1C(=O)NCC1(N2CCOCC2)CCCCC1 | inactive: 2.43%
CN1CCC(Nc2ccc(F)c(Cl)c2)CC1 | inactive: 2.38%
CN(C)c1ccc(C(=O)NCC2(N3CCCCC3)CCCCC2)cc1 | inactive: -10.4%
CCN1CCC(Nc2cccc(F)c2)CC1 | inactive: 4.22%
COc1cc(OC)cc(C(=O)NCC2(N3CCCCC3)CCCCC2)c1 | inactive: -5.44%
